Test results: ChEMBL document CHEMBL3045201, “Quantitative Structure-Activity Relationships of Fluazinam and Related Fungicidal N-phenylpyridinamines” (1996)

How the values were obtained:
[1] = system: Podosphaera fuliginea; assay: Fungicidal activity against Podosphaera fuliginea infected in 24 hr compound pre-treated cucumber plant assessed as disease control measured after 10 days
[2] = system: Rhizoctonia solani; assay: Fungicidal activity against Rhizoctonia solani infected in 24 hr compound pre-treated Oryza sativa cv. Chukyoasahi assessed as disease control measured after 10 days
[3] = system: Pyricularia oryzae; assay: Fungicidal activity against Magnaporthe oryzae infected in 24 hr compound pre-treated Oryza sativa cv. Chukyoasahi assessed as disease control measured after 10 days

Which I90 [1] does the source give for [N-]=[N+]=Nc1c(C(F)(F)F)cc([N+](=O)[O-])c(Nc2ncc(C(F)(F)F)cc2Cl)c1[N+](=O)[O-] here?
The I90 was 63 ppm.

What about the I90 [2] of the same molecule?
The I90 was 250 ppm.

And the I90 [3]?
Its I90 is 16 ppm.
